Results of unrelated studies side by side (data: NIAID ChemDB).

Shared fields: whole-cell or culture tests

Zone: diameter of growth inhibition.

structure	species	strain	changes	cell line	read by	read-out	tested at	value
Nc1ncnc2c1ncn2CCOCP(=O)(O)O	Mouse cytomegalovirus	Foscarnet-resistant	-	C1271	plaque count	EC50	-	11.1 µM
CO[C@H]1/C=C/O[C@@]2(C)Oc3c(C)c(O)c4c(=O)c(c5oc6cc(N7CCN(CC(C)C)CC7)cc(=O)c6nc5c4c3=C2O)NC(=O)/C(C)=C\C=C\[C@H](C)[C@H](O)[C@@H](C)[C@@H](O)[C@@H](C)[C@H](OC(C)=O)[C@@H]1C	Staphylococcus aureus	20 strains (methicillin-resistant)	-	-	-	MIC90	-	0.016 µg/mL
COc1c(N2C[C@@H]3CCCN[C@@H]3C2)c(F)cc2c(=O)c(C(=O)O)cn(C3CC3)c12	Staphylococcus aureus	25 strains (methicillin-susceptible)	-	-	-	MIC50	-	0.06 µg/mL
CO[C@H]1/C=C/O[C@@]2(C)Oc3c(C)c(O)c4c(O)c(c(/C=N/N5CCN(C)CC5)c(O)c4c3C2=O)NC(=O)/C(C)=C\C=C\[C@H](C)[C@H](O)[C@@H](C)[C@@H](O)[C@@H](C)[C@H](OC(C)=O)[C@@H]1C	Staphylococcus aureus	20 strains (methicillin-resistant)	-	-	-	MIC50	-	0.0078 µg/mL
NC[C@@H]1O[C@H](O[C@H]2[C@@H](O)[C@H](O[C@@H]3[C@@H](O)[C@H](N)C[C@H](N)[C@H]3O[C@H]3O[C@H](CO)[C@@H](O)[C@H](O)[C@H]3N)O[C@@H]2CO)[C@H](N)[C@@H](O)[C@@H]1O	Encephalitozoon cuniculi	-	-	MRC-5 fibroblasts	cytopathic effect	inhibition	100 µg/mL	0%
OC[C@@H](O)C(O)[C@H](O)CO	Herpes simplex virus 1	KOS	-	HeLa	cytopathic effect	EC50	-	>200 µg/mL
NC(=O)c1ncn([C@@H]2O[C@H](CO)[C@@H](O)[C@H]2O)n1	Measles virus	Chicago	-	CV-1	cytopathic effect	EC50	-	25 µg/mL
Nc1ncnc2c1ncn2C[C@H](O)CO	Epstein-Barr virus	-	-	P3HR-1	-	inhibition	0.1 µM	5%
OC(Cn1cncn1)(Cn1cncn1)c1ccc(F)cc1F	Candida albicans	YL 328	-	-	broth dilution	MIC	-	512 µg/mL
Cc1onc(-c2ccccc2)c1C(=O)N[C@@H]1C(=O)N2[C@@H]1SC(C)(C)[C@@H]2C(=O)O	Staphylococcus aureus	25 strains (methicillin-susceptible)	-	-	-	MIC90	-	1 µg/mL
C[C@H]1CN(c2c(F)cc3c(=O)c(C(=O)O)cn(C4CC4)c3c2OC(F)F)CCN1	Staphylococcus aureus	20 strains (oxacillin-susceptible)	-	-	-	MIC90	-	0.06 µg/mL
CC[C@H]1OC(=O)[C@H](C)[C@@H](O[C@H]2C[C@@](C)(OC)[C@@H](O)[C@H](C)O2)[C@H](C)[C@@H](O[C@@H]2O[C@H](C)C[C@H](N(C)C)[C@H]2O)[C@](C)(O)C[C@@H](C)/C(=N\OCOCCOC)[C@H](C)[C@@H](O)[C@]1(C)O	Encephalitozoon cuniculi	-	-	MRC-5 fibroblasts	cytopathic effect	inhibition	10 µg/mL	0%
Nc1cc(OC[C@H](CO)OCP(=O)(O)O)nc(N)n1	Punta Toro virus	-	-	-	cytopathic effect	EC50	-	>15 µM
Nc1nc2c(ncn2COCCOCP(=O)(O)O)c(=O)[nH]1	Mouse cytomegalovirus	WILD TYPE	-	C1271	plaque count	EC50	-	4.3 µM
CCCN(CCC)c1c([N+](=O)[O-])cc(C(F)(F)F)cc1[N+](=O)[O-]	Toxoplasma gondii	Ethalfluralin-resistant	-	-	-	EC50	-	3 µM
Nc1ncnc2c1ncn2C[C@@H](CO)OCP(=O)(O)O	Varicella zoster virus	BVaraU-resistant	-	HEL	plaque count	EC50	-	0.0034 µg/mL
CCCCCCCCCCCCCCCCCCCCCCOCC(C)(COCCCCCCCCCCCCCCCCCCCCCC)CO[C@]1(C(=O)O)C[C@H](OS(=O)(=O)O)[C@@H](NC(C)=O)[C@H]([C@H](OS(=O)(=O)O)[C@@H](COS(=O)(=O)O)OS(=O)(=O)O)O1	Respiratory syncytial virus	LONG	-	HEP-2	plaque count	EC50	-	0.32 µM
COc1cc(C[C@H](C)[C@H](C)Cc2ccc(O)c(O)c2)ccc1O	Candida kefyr	CCC 123-2000	-	-	broth dilution	MIC50	-	15.6 µg/mL
CO[C@@H]1[C@@H](OC(N)=O)[C@@H](O)[C@H](Oc2ccc3c(O)c(NC(=O)c4ccc(O)c(CC=C(C)C)c4)c(=O)oc3c2C)OC1(C)C	Herpes simplex virus 1	KOS	-	HeLa	cytopathic effect	EC50	-	>200 µg/mL
CCn1cc(C(=O)O)c(=O)c2cc(F)c(N3CCN(C)CC3)cc21	Encephalitozoon cuniculi	-	-	MRC-5 fibroblasts	cytopathic effect	EC50	-	>20 µg/mL
NC(=O)c1nc(F)c[nH]c1=O	Influenza A virus	H1N1 Yamagata/120/86	-	MDCK	plaque count	EC50	-	0.12 µg/mL
CO[C@@H]1[C@@H](O[C@@H]2O[C@H](C)[C@@H](O[C@H]3C[C@@](C)(O)[C@@H](O)[C@H](C)O3)[C@H](N(C)C)[C@H]2O)[C@@H](CC=O)C[C@@H](C)[C@@H](O[C@H]2CC[C@H](N(C)C)[C@H](C)O2)/C=C/C=C/C[C@@H](C)OC(=O)C[C@H]1O	Toxoplasma gondii	-	-	-	-	EC50	-	<4 µg/mL
CCC(C)n1ncn(-c2ccc(N3CCN(c4ccc(OC[C@H]5CO[C@](Cn6cncn6)(c6ccc(Cl)cc6Cl)O5)cc4)CC3)cc2)c1=O	Candida albicans	Isogenic isolate 2 MDR1 (12X)	-	-	-	MIC	-	0.015 µg/mL
CC(C)(CO)C(=O)SCCOP(=O)(NCc1ccccc1)OC[C@H]1O[C@@H](n2cnc3c(=O)[nH]c(N)nc32)[C@](C)(O)[C@@H]1O	Hepatitis C virus	GT1a	L31M	Replicon cells	replicon	fold resistance	-	1.04
Nc1cc(OCCOCP(=O)(O)O)nc(N)n1	Punta Toro virus	-	-	-	cytopathic effect	EC50	-	>190 µM
Cc1cn([C@H]2C[C@H](N=[N+]=[N-])[C@@H](CO)O2)c(=O)[nH]c1=O	HIV-1	NRTI resistant	RT-M41L D67N T69N K70R T215F K219E	HeLa	luciferase	EC50	-	0.344 µM
Nc1ccn([C@@H]2C[C@H](CO)[C@@H](O)[C@H]2O)c(=O)n1	Vesicular stomatitis virus	-	-	E6SM	cytopathic effect	EC50	-	10 µg/mL
NC1CCN(c2nc3c(cc2F)c(=O)c(C(=O)O)cn3-c2ccc(F)cc2F)C1	Haemophilus influenzae	38 strains (ampicillin-susceptible)	-	-	-	MIC50	-	≤0.004 µg/mL
CCCSc1ccc2nc(NC(=O)OC)[nH]c2c1	Encephalitozoon cuniculi	-	-	MRC-5 fibroblasts	cytopathic effect	EC50	-	<0.01 µg/mL
Cn1c2ccccc2c2c1cc(C#N)c(=O)n2-c1ccc([N+](=O)[O-])cc1	HIV-1	Recombinant	RT-A62T V118I M184V	HeLa	luciferase	fold resistance	-	9.5
Nc1ncnc2c1ncn2C[C@@H](CO)OCP(=O)(O)O	Mouse cytomegalovirus	Foscarnet-resistant	-	C1271	plaque count	EC50	-	0.6 µM
Oc1cc(O)c2c(c1)OC(c1ccc(O)c(O)c1)[C@@H](O)C2	Candida tropicalis	Clinical isolate 3	-	-	broth dilution	MIC50	-	>128 µg/mL
CN[C@@H]1[C@H](O[C@H]2[C@H](O[C@H]3[C@H](O)[C@@H](O)[C@H](N=C(N)N)[C@@H](O)[C@@H]3N=C(N)N)O[C@@H](C)[C@]2(O)C=O)O[C@@H](CO)[C@H](O)[C@H]1O	Klebsiella pneumoniae	ESBL-3967	-	-	agar diffusion	zone	250 µg/disc	14 mm
CC(C)=CCN1Cc2cc(Cl)cc3[nH]c(=S)n(c23)C[C@@H]1C	HIV-1	-	RT-D67N K70R T215Y K219Q A98G	MT-4	-	EC95	-	>3 µM
Nc1ccn(C[C@@H](CO)OCP(=O)(O)O)c(=O)n1	Varicella zoster virus	PFA-resistant/A	-	HEL	plaque count	EC50	-	0.14 µg/mL
C[C@H]1COc2c(N3CCN(C)CC3)c(F)cc3c(=O)c(C(=O)O)cn1c23	Haemophilus influenzae	38 strains (ampicillin-susceptible)	-	-	-	MIC90	-	0.015 µg/mL
Nc1[nH]c(=O)ncc1F	Encephalitozoon cuniculi	-	-	MRC-5 fibroblasts	cytopathic effect	inhibition	100 µg/mL	0%
COc1cc(Cc2cnc(N)nc2N)cc(OC)c1Br	Mycobacterium ulcerans	Isolate 94-539	-	-	-	MIC	-	4 µg/mL
C[C@@H]1CN(c2c(F)c(N)c3c(=O)c(C(=O)O)cn(C4CC4)c3c2F)C[C@H](C)N1	Haemophilus influenzae	38 strains (ampicillin-susceptible)	-	-	-	MIC50	-	0.008 µg/mL
O=C(O)P(=O)(O)O	Varicella zoster virus	PFA-resistant/A	-	HEL	plaque count	EC50	-	72.1 µg/mL
CC1(C)[C@@H](O[C@H]2O[C@H](C(=O)O)[C@@H](O)[C@H](O)[C@H]2O[C@@H]2O[C@H](C(=O)O)[C@@H](O)[C@H](O)[C@H]2O)CC[C@]2(C)[C@H]3C(=O)C=C4[C@@H]5C[C@@](C)(C(=O)O)CC[C@]5(C)CC[C@@]4(C)[C@]3(C)CC[C@@H]12	Dengue virus	TYPE 2 (NGC)	-	VERO	virus yield	EC50	-	<317 µg/mL
N[C@H]1[C@H](O)[C@@H](O)[C@@H](O[C@H]2O[C@H](CO)[C@@H](O)[C@H](O)[C@H]2O)O[C@@H]1CO	Herpes simplex virus 1	KOS	-	HeLa	cytopathic effect	EC50	-	>400 µg/mL
CC(=O)NC[C@H]1CN(c2ccc(N3CCN(C(=O)CO)CC3)c(F)c2)C(=O)O1	Staphylococcus aureus	Oxacillin-resistant	-	-	-	MIC50	-	1–4 µg/mL
CN(C)[C@@H]1C(=O)C(C(N)=O)=C(O)[C@@]2(O)C(=O)C3=C(O)c4c(O)c(NC(=O)CNc5ccccc5)cc(F)c4C[C@H]3C[C@@H]12	Staphylococcus aureus	101-29213	-	-	agar diffusion	EC50	-	2 µg/mL
Nc1ncnc2c1ncn2C[C@@H](CO)OCP(=O)(O)O	Epstein-Barr virus	-	-	P3HR-1	-	inhibition	100 µM	11%
NCC(O)c1ccc(O)c(O)c1	Herpes simplex virus 1	KOS	-	HeLa	cytopathic effect	EC50	-	>200 µg/mL
CC[C@H]1OC(=O)[C@H](C)[C@@H](O[C@H]2C[C@@](C)(OC)[C@@H](O)[C@H](C)O2)[C@H](C)[C@@H](O[C@@H]2O[C@H](C)C[C@H](N(C)C)[C@H]2O)[C@](C)(OC)C[C@@H](C)C(=O)[C@H](C)[C@@H](O)[C@]1(C)O	Mycobacterium massiliense	V60	-	-	broth dilution	MIC	-	0.125 µg/mL
Nc1nc2c(ncn2COC(CO)CO)c(=O)[nH]1	Varicella zoster virus	ACV-resistant	-	HEL	plaque count	EC50	-	2.5 µg/mL
CN(C)c1ccc(O)c2c1C[C@H]1C[C@H]3[C@H](N(C)C)C(=O)C(C(N)=O)=C(O)[C@@]3(O)C(=O)C1=C2O	Encephalitozoon cuniculi	-	-	MRC-5 fibroblasts	cytopathic effect	inhibition	50 µg/mL	54%
Nc1nc(NC2CC2)c2ncn([C@H]3C=C[C@@H](CO)C3)c2n1	HIV-1	Recombinant	RT-M41L V118I M184V	HeLa	luciferase	fold resistance	-	2.6
CN(C)c1cc(NC(=O)CNC(C)(C)C)c(O)c2c1C[C@H]1C[C@H]3[C@H](N(C)C)C(=O)C(C(N)=O)=C(O)[C@@]3(O)C(=O)C1=C2O	Mycobacterium bolletii	-	-	-	broth dilution	MIC	-	0.25 µg/mL
C#CC[C@@H](C(=O)N[C@H](/C=C/C(=O)OCC)C[C@@H]1CCNC1=O)n1cccc(NC(=O)c2cc(C)on2)c1=O	Rhinovirus	Serotype 68	-	H1-HELA	cytopathic effect / XTT	inhibition	0.941 µM	90%
Nc1ncnc2c1ncn2CCOCP(=O)(O)O	Sindbis virus	-	-	-	cytopathic effect	EC50	-	>185 µM
C[C@H]1COc2c(N3CCN(C)CC3)c(F)cc3c(=O)c(C(=O)O)cn1c23	Streptococcus pneumoniae	Clinical isolate 6678	-	-	-	MIC	-	4 µg/mL
Cc1ccnc2c1NC(=O)c1cccnc1N2C1CC1	HIV-1	RTMC	RT-D67N K70R T215Y K219Q	HT4 + HT4 LacZ-1	plaque count	fold resistance	-	0.833
CCOc1cc(Cc2cnc(N)nc2N)cc(OCC)c1-n1cccc1	Mycobacterium ulcerans	Isolate 5143	-	-	-	MBC	-	0.5 µg/mL
CO/N=C1\CN(c2nc3c(cc2F)c(=O)c(C(=O)O)cn3C2CC2)CC1CN	Haemophilus influenzae	38 strains (ampicillin-susceptible)	-	-	-	MIC90	-	0.008 µg/mL
C=C[C@H]1CN2CC[C@H]1C[C@H]2[C@H](O)c1ccnc2ccccc12	Herpes simplex virus 1	KOS	-	HeLa	cytopathic effect	EC50	-	>200 µg/mL
C[C@H]1NCc2cc(-c3ccc4c(=O)c(C(=O)O)cn(C5CC5)c4c3OC(F)F)ccc21	Haemophilus influenzae	38 strains (ampicillin-susceptible)	-	-	-	MIC90	-	0.008 µg/mL
NC(N)=NS(=O)(=O)c1ccc(N)cc1	Encephalitozoon cuniculi	-	-	MRC-5 fibroblasts	cytopathic effect	inhibition	25 µg/mL	0%
Nc1nc2c(ncn2COCCO)c(=O)[nH]1	Mouse cytomegalovirus	Ganciclovir-resistant	-	C1271	plaque count	EC50	-	5.9 µM
N[C@@H]1CN(c2c(F)cc3c(=O)c(C(=O)O)cn([C@@H]4C[C@@H]4F)c3c2Cl)CC12CC2	Staphylococcus aureus	25 strains (ofloxacin-resistant)	-	-	-	MIC50	-	1 µg/mL

The last 4 rows once more:

{"structure": "C[C@H]1NCc2cc(-c3ccc4c(=O)c(C(=O)O)cn(C5CC5)c4c3OC(F)F)ccc21", "species": "Haemophilus influenzae", "strain": "38 strains (ampicillin-susceptible)", "read-out": "MIC90", "value": "0.008 µg/mL"}
{"structure": "NC(N)=NS(=O)(=O)c1ccc(N)cc1", "species": "Encephalitozoon cuniculi", "cell line": "MRC-5 fibroblasts", "read by": "cytopathic effect", "read-out": "inhibition", "tested at": "25 µg/mL", "value": "0%"}
{"structure": "Nc1nc2c(ncn2COCCO)c(=O)[nH]1", "species": "Mouse cytomegalovirus", "strain": "Ganciclovir-resistant", "cell line": "C1271", "read by": "plaque count", "read-out": "EC50", "value": "5.9 µM"}
{"structure": "N[C@@H]1CN(c2c(F)cc3c(=O)c(C(=O)O)cn([C@@H]4C[C@@H]4F)c3c2Cl)CC12CC2", "species": "Staphylococcus aureus", "strain": "25 strains (ofloxacin-resistant)", "read-out": "MIC50", "value": "1 µg/mL"}

Fold resistance has wild type as its base. Blank or dashed fields: not listed here. MIC50, MIC90 and the like: level of inhibition, or share of isolates inhibited. Lines come from different laboratories, so protocols vary. a–b is a range or a potency band. Inhibition is in % at the dose shown (toxicity tests: loss of growth or viability). ECn: concentration that inhibits the pathogen or its effect by n%.